Compound potency records, mixed from different reports. Data source: NIAID ChemDB in PubChem.

Shared fields: whole-cell or culture tests; agent: Mycobacterium chelonae

Blank or dashed fields: not listed here.

SMILES | read by | read-out | strain | conditions | result
Nc1nc(N)c2c(n1)NC(c1ccc3c(c1)OCO3)CC(c1ccc(F)cc1)=N2 | MTT / broth dilution / absorbance | MIC | MNT1407 | clinical isolate | >32 µg/mL
C[C@H]1[C@H](C)CC[C@]2(C(=O)O)CC[C@]3(C)C(CC[C@@H]4[C@@]5(C)C[C@H](O)CC(C)(C)[C@@H]5CC[C@]43C)[C@H]12 | resazurin | MIC |  |  | 100 µg/mL
CCCCCCCCCCCN(CCCCCCCCCCC)C(=O)NC(CCC(=O)O)(CCC(=O)O)CCC(=O)O |  | MIC | EO-P-1 |  | 72 µg/mL
CSc1nc(N)c2c(n1)NC(c1ccc(C(F)(F)F)cc1)CC(c1ccc3c(c1)OCO3)=N2 | MTT / broth dilution / absorbance | MIC | MNT1407 | clinical isolate | >32 µg/mL
CC[C@H]1OC(=O)[C@H](C)[C@@H](O[C@H]2C[C@@](C)(OC)[C@@H](O)[C@H](C)O2)[C@H](C)[C@@H](O[C@@H]2O[C@H](C)C[C@H](N(C)C)[C@H]2O)[C@](C)(OC)C[C@@H](C)C(=O)[C@H](C)[C@@H](O)[C@]1(C)O |  | MIC | EO-P-1 |  | 12.5 µg/mL
NCC[C@H](O)C(=O)N[C@@H]1C[C@H](N)[C@@H](O[C@H]2O[C@H](CN)[C@@H](O)[C@H](O)[C@H]2O)[C@H](O)[C@H]1O[C@H]1O[C@H](CO)[C@@H](O)[C@H](N)[C@H]1O | broth dilution | MIC50 |  |  | 8 µg/mL
CCC1OC(c2ccncc2)=NN1C(C)=O | agar | MIC |  |  | >100 µg/mL
Nc1nc(N)c2c(n1)NC(c1ccc3c(c1)OCO3)CC(c1ccc(Cl)cc1)=N2 | MTT / broth dilution / absorbance | MIC | MNT1407 | clinical isolate | 32 µg/mL
CCCCCCCN(CCCCCCC)C(=O)NC(CCC(=O)O)(CCC(=O)O)CCC(=O)O |  | MIC | EO-P-1 |  | 54 µg/mL
COc1ccc(/C=C/C2=NN(C(=N)N)C(c3ccc(OC)cc3)C2)cc1 | resazurin | MIC |  |  | 3.57 µM
CCCCCCCC1SCC(=O)N1NC(=O)c1ccncc1 | agar | MIC |  |  | 50 µg/mL
CSc1nc(N)c2c(n1)NC(c1ccc(Cl)cc1)CC(c1ccc3c(c1)OCO3)=N2 | MTT / broth dilution / absorbance | MIC | MNT1407 | clinical isolate | >32 µg/mL
O=c1cc(-c2ccccc2)c2ccc(Cl)cc2o1 | resazurin | MIC90 | ATCC 35752 |  | >100 µg/mL
CCCCCCCCCCC(CCCCCCCCCC)NC(=O)NC(CCC(=O)O)(CCC(=O)O)CCC(=O)O |  | MIC | EO-P-1 |  | 27 µg/mL
N=C(N)N1N=C(/C=C/c2ccccc2)CC1c1ccccc1 | resazurin | MIC |  |  | 4.3 µM

The first 2 rows once more:

SMILES | read by | read-out | strain | conditions | result
Nc1nc(N)c2c(n1)NC(c1ccc3c(c1)OCO3)CC(c1ccc(F)cc1)=N2 | MTT / broth dilution / absorbance | MIC | MNT1407 | clinical isolate | >32 µg/mL
C[C@H]1[C@H](C)CC[C@]2(C(=O)O)CC[C@]3(C)C(CC[C@@H]4[C@@]5(C)C[C@H](O)CC(C)(C)[C@@H]5CC[C@]43C)[C@H]12 | resazurin | MIC |  |  | 100 µg/mL

MIC50, MIC90 and the like: level of inhibition, or share of isolates inhibited. Rows are shuffled and stem from different studies.